Anti-infective test results gathered from many reports (values: NIAID ChemDB through PubChem).

Shared fields: tests in culture; agent: Mycobacterium tuberculosis

MIC bound: limit read from a one-dose screen. MIC50, MIC90 and the like: level of inhibition, or share of isolates inhibited. An empty or dashed field is not shown. Neighbouring rows are from separate reports. Two numbers with a dash give a range or band. Inhibition is in % at the dose shown (toxicity tests: loss of growth or viability). ECn: concentration that inhibits the pathogen or its effect by n%.

SMILES | measure | tested at | read by | strain or isolate | result
CCCCCCCCS(=O)(=O)CC(N)=O | MIC | - | - | OT2769 | ≤12.5 µg/mL
C(=C\c1ccccc1)/CO/N=C(\Cn1ccnc1)c1ccccc1 | MIC | - | - | CIP103471 | 8 µg/mL
NNC(=O)c1ccncc1 | MIC | - | - | ATCC 25177 | 0.22 µM
Cc1cc(C)c(-c2csc(NC(=O)c3ccc([N+](=O)[O-])o3)n2)c(C)c1 | inhibition | 10 µM | - | H37Ra | <0%
C=CCN1CSC(=S)N(CCc2ccc(Cl)c(Cl)c2)C1 | MIC bound | - | BACTEC | H37Rv | >12.5 µg/mL
NC(=S)Nc1ccccc1 | MIC | - | - | A67 | 1000 µM
OB1N=C(c2cnccn2)Nc2ccccc21 | MIC | - | - | H37Rv | 128 µg/mL
CC(=O)c1ccc(N2CCN(C(=O)c3cscn3)CC2)cc1 | MIC50 | - | turbidity | BioA underexpression strain | >50 µM
Cc1ccc(C2CC(c3cccs3)C3=C(O2)C(=O)c2ccccc2C3=O)cc1 | MIC | - | - | H37Rv | >100 µg/mL
CC(=O)c1ccc(N2CCN(C(=O)c3ccc4c(c3)OCCO4)CC2)cc1 | MIC50 | - | turbidity | BioA overexpression strain | >50 µM
NNC(=O)c1ccncc1 | MIC | - | - | MOS | 0.1 µg/mL
CNC(=O)c1ccc(/C=C/c2c[nH]c3ccccc23)[n+](C)c1.[I-] | MIC bound | - | BACTEC | H37Rv | >12.5 µg/mL
NC(=S)Nc1ccc(O)cc1 | MIC | - | - | A67 | 500 µM
O=[N+]([O-])Cc1cnc2nncn2n1 | inhibition | 12.5 µg/mL | BACTEC | H37Rv | 98%
OC[C@H]1N[C@@H](CSc2ccc3ccccc3c2)[C@@H](O)[C@@H]1O | EC50 | - | BACTEC | H37Ra | >12.5 µg/mL
CCn1cc(C(=O)O)c(=O)c2cc(F)c(N3CCN(C)CC3)cc21 | MIC90 | - | - | - | 16 µg/mL
N#Cc1ncc(C(Cl)(Cl)Cl)nc1Cl | MIC | - | BACTEC | H37Rv | 6.25 µg/mL
O=C1OCc2cc(N3CCN(C(=O)c4cccc(Cl)c4)CC3)ccc21 | MIC90 | - | turbidity | BioA underexpression strain | 22.8 µM
CCCCCCC/C=C\C(O)C#CC#CC(O)CCOC | MIC90 | - | resazurin | H37Rv | >60 µg/mL
COc1ccc2oc(C(=O)O)cc2c1 | MIC bound | - | BACTEC | H37Rv | >6.25 µg/mL
O=C1C(=O)c2ccccc2C2=C1CCC(c1ccc(Cl)cc1)O2 | MIC | - | - | H37Rv | 2.5 µg/mL
c1ccc(/C(Cn2ccnc2)=N\OCc2ccc(-c3ccccc3)cc2)cc1 | MIC | - | - | CIP103471 | 8 µg/mL
COC(=O)/C=C(C)/C=C/C1OC(C)OCC1O | inhibition | 12.5 µg/mL | BACTEC | H37Rv | 2%
CC1COc2c(N3CCN(C)CC3)c(F)cc3c(=O)c(C(=O)O)cn1c23 | MBC | - | - | - | 1–2 µg/mL
COc1ccccc1-c1csc(NC(=O)c2ccc([N+](=O)[O-])o2)n1 | inhibition | 1 µM | - | H37Ra | <0%
CC(C)[C@H]1C(=O)N2CCC[C@H]2[C@]2(O)O[C@](NC(=O)[C@@H]3C=C4c5cccc6[nH]cc(c56)C[C@H]4N(C)C3)(C(C)C)C(=O)N12 | MIC | - | BACTEC | H37Rv | ≥12.5 µg/mL
C[C@]1(COc2ccc(N3CCC(Oc4ccc(OC(F)(F)F)cc4)CC3)cc2)Cn2cc([N+](=O)[O-])nc2O1 | MIC | - | - | UT30 | 0.024 µg/mL
CC[C@H]1OC(=O)[C@H](C)[C@@H](O[C@H]2C[C@@](C)(OC)[C@@H](OC(C)=O)[C@H](C)O2)[C@H](C)[C@@H](O[C@@H]2O[C@H](C)C[C@H](N(C)C)[C@H]2O)C(C)(O)C[C@@H](C)/C(=N\OCCCC2CCCCC2)[C@H](C)[C@@H](O)[C@]1(C)O | MIC | - | - | 1 (rifimpin isoniazid-susceptible) | 3.13 µg/mL
O=C(c1cccc(Cl)c1)N1CCN(c2ccc(-c3ccccn3)cc2)CC1 | MIC50 | - | turbidity | BioA overexpression strain | >50 µM
CC1CN(c2cc3c(c(N)c2F)c(=O)c(C(=O)O)cn3C2CC2)CC(C)N1S(=O)(=O)c1nnc(N)s1 | MIC | - | - | H37Rv | 10 µg/mL
COc1ccc(NC(N)=S)cc1 | MIC | - | - | A67 | 500 µM
Nc1nnc(S(=O)(=O)N2CCN(c3cc4c(cc3F)c(=O)c(C(=O)O)cn4C3CC3)CC2)s1 | MIC | - | - | H37Rv | 10 µg/mL
S=C(S)N(C1CCCCC1)C1CCCCC1 | inhibition | 12.5 µg/mL | BACTEC | H37Rv | -4%
CC(=O)Nc1c(F)c(N2CC(C)NC(C)C2)c(F)c2c1c(=O)c(C(=O)O)cn2C1CC1 | MIC | - | - | H37Rv | 10 µg/mL
C/C=C(\C)C(=O)O[C@H]1C[C@@H](OC(C)=O)[C@@]2(C(=O)OC)CO[C@H]3[C@@H](O)[C@@](C)([C@]45O[C@@]4(C)[C@H]4C[C@@H]5O[C@@H]5OC=C[C@@]54O)[C@H]4[C@]1(CO[C@]4(O)C(=O)OC)[C@@H]32 | MIC | - | BACTEC | H37Rv | ≥12.5 µg/mL
CC1COc2c(N3CCN(C)CC3)c(F)cc3c(=O)c(C(=O)O)cn1c23 | MIC50 | - | - | 24 strains (drug-susceptible) | 1 µg/mL
C=C1C2CC[C@H](C=O)C(O)(C=O)[C@@]2(C)CC[C@@H]1C | MIC | - | - | H37Rv | 200 µg/mL
Cn1c(SCc2ccc(Cl)cc2Cl)nnc1-c1ccc(N=Cc2ccc(O)cc2)cc1 | EC50 | - | - | H37Rv | >6.25 µg/mL
C=Cc1ccc(C(=O)Nc2nnc(-c3ccc4c(c3)CCCC4)o2)cc1 | EC90 | - | agar | H37Rv | 1.68 µg/mL
CCOC(=O)c1cc(-c2ccc(Cl)cc2)n(C(C)C(=O)N=Nc2c(O)[nH]c3ccccc23)c1C | inhibition | 6.25 µg/mL | resazurin | H37Rv (ATCC 27294) | 60%
CC1=C/C(=N\NC(=O)c2ccc[n+](C)c2)CC(C)(C)C1.Cc1ccc(S(=O)(=O)[O-])cc1 | MIC | - | BACTEC | H37Rv | ≥12.5 µg/mL
COc1cccc(-c2csc(NC(=O)c3ccc([N+](=O)[O-])cc3)n2)c1 | inhibition | 1 µM | - | H37Ra | <0%
CCn1cc(C(=O)O)c(=O)c2cc(F)c(N3CCNC(C)C3)c(F)c21 | MIC | - | - | - | 0.5–2 µg/mL
COc1ccc2c(c1OC)C(C(Cl)(Cl)Cl)N1CCc3cc4c(cc3C1=C2C=O)OCO4 | MIC bound | - | BACTEC | H37Rv | >12.5 µg/mL
Cc1ccc(C2CCC3=C(O2)C(=O)c2ccccc2C3=O)c(C)c1 | MIC | - | - | H37Rv | >100 µg/mL
CCOC(=O)c1cc(-c2ccc(Cl)cc2)n(CCC(=O)N/N=C/c2ccc(NC(C)=O)cc2)c1C | inhibition | 6.25 µg/mL | resazurin | H37Rv (ATCC 27294) | 50%
Cc1ccc(-c2nnc(NC(=O)c3ccccc3Cl)o2)c(C)c1 | EC90 | - | agar | H37Rv | <0.2 µg/mL
C=C1C(=O)OC2CC3(C)C(O)CCC(=C)C3CC12 | MIC bound | - | BACTEC | H37Rv | >12.5 µg/mL
Clc1ccc(/C(Cn2ccnc2)=N\OCc2ccc(-c3ccccc3)cc2)c(Cl)c1 | MIC | - | - | CIP103471 | 8 µg/mL
CCc1cn(C2OC(CO)C(Br)C2F)c(=O)[nH]c1=O | MIC78 | - | resazurin | H37Ra | 100 µg/mL
C=CC(O)C#CC#CC(O)C1OC1CCCCCCC | MIC90 | - | resazurin | Erdman | >60 µg/mL
O=C(Cc1ccccc1)NN1C(=O)C(Cl)C1c1ccccc1 | inhibition | 6.25 µg/mL | resazurin | H37Rv | 7%
C=CCn1c(SCc2ccc(Cl)cc2Cl)nnc1-c1ccc(N)cc1 | EC50 | - | - | H37Rv | >6.25 µg/mL
CC1(C)S[C@@H]2[C@H](NC(=O)[C@H](N)c3ccc(O)cc3)C(=O)N2[C@H]1C(=O)O | MIC90 | - | - | 24 strains (drug-susceptible) | >256 µg/mL
OC[C@H]1O[C@@H](CSc2ccccc2)[C@@H](O)[C@@H]1O | MIC | - | - | H37Ra | >128 µg/mL
CCc1cn2c(nc1=O)O[C@@H]1[C@H](F)[C@H]2O[C@@H]1CO | MIC25 | - | resazurin | H37Ra | 50 µg/mL
C/C=C1/CN2[C@H]3C[C@@H]1[C@@H](CO)[C@@H]2Cc1c3[nH]c2ccc(OC)cc12 | MIC | - | - | H37Rv | >200 µg/mL
O=C1C2=C(c3ccccc31)C(c1ccc([N+](=O)[O-])cc1)NC(=S)N2 | inhibition | 12.5 µg/mL | BACTEC | H37Rv | 91%
O=S(C[C@@H]1N[C@H](CO)[C@@H](O)[C@@H]1O)c1ccccc1 | EC50 | - | BACTEC | H37Ra | >12.5 µg/mL
CCOC(=O)c1c(C)[nH]c(/C=N/NC(=O)Cn2c(C)c(C(=O)OCC)c(C)c2-c2ccc(Cl)cc2)c1C | inhibition | 6.25 µg/mL | resazurin | H37Rv (ATCC 27294) | 97%
CN1CCC(CN2c3ccccc3Sc3ccccc32)C1 | MIC | - | - | H37RV 102 | 10 µg/mL
O=c1[nH]c(=S)c(CO)cn1C1OC(CO)C(O)C1O | MIC100 | - | resazurin | H37Ra | 50 µg/mL
Clc1ccc(/C(Cn2ccnc2)=N\OCc2cccc3ccccc23)cc1 | MIC | - | - | CIP103471 | 8 µg/mL
Cn1c(SCc2ccc(Cl)cc2Cl)nnc1-c1ccc(N=Cc2c(Cl)cccc2Cl)cc1 | EC50 | - | - | H37Rv | >6.25 µg/mL
O=C1C(=O)c2ccccc2C2=C1CCC(c1ccc(F)cc1)O2 | MIC | - | - | H37Rv | 2.5 µg/mL
CC1=C2C(=CO[C@H](C)[C@H]2C)C(=O)C(C(=O)O)=C1O | inhibition | 10 µg/mL | - | M.AV | 22%
CC[C@@H](CO)NCCN[C@@H](CC)CO | MIC | - | - | ATCC 27294 | 14.4 µM
CCOC(=O)N1CCN(c2ccc(C3CC(c4ccc([N+](=O)[O-])o4)=NO3)cc2)CC1 | MIC | - | - | UT26 | 0.003 µg/mL
C=C1C(=O)OC2CC(C)C3CC(=O)OCC3(C)CC12 | inhibition | 12.5 µg/mL | BACTEC | H37Rv | 4%
CC(=O)c1ccc(N2CCC(C(=O)c3cccc(Cl)c3)CC2)cc1 | MIC90 | - | turbidity | Wild type without biotin | >50 µM
Nc1ccc(N=Nc2ccc(-c3ccc(N=Nc4c(S(=O)(=O)[O-])cc5cc(S(=O)(=O)[O-])c(N=Nc6ccc([N+](=O)[O-])cc6)c(N)c5c4O)cc3)cc2)c2cc(S(=O)(=O)[O-])ccc12.[Na+].[Na+].[Na+] | MIC bound | - | BACTEC | H37Rv | >12.5 µg/mL
Cn1c(SCc2ccc(Cl)cc2Cl)nnc1-c1ccc(N)cc1 | EC50 | - | - | H37Rv | >6.25 µg/mL
CC(C)(O)[C@H](O)COc1c2occc2cc2ccc(=O)oc12 | MIC | - | - | H37Rv | 200 µg/mL
Nc1ccc(-c2nnc(SCc3ccc(Cl)cc3Cl)n2C2CCCCC2)cc1 | inhibition | 6.25 µg/mL | - | H37Rv | 50–59%
CCOC(=O)c1cc(-c2ccc(Cl)cc2)n(C(C)C(=O)N/N=C/c2[nH]c(C(=O)OCC)c(C)c2C(=O)OCC)c1C | inhibition | 6.25 µg/mL | resazurin | H37Rv (ATCC 27294) | 68%
O=[n+]1c2ccc(Cl)cc2n([O-])c2ccc(Cl)cc21 | MIC | - | - | TAC-R | 12.5 µg/mL
OC[C@H]1N[C@@H](CSc2ccccc2)[C@@H](O)[C@@H]1O | EC50 | - | BACTEC | H37Ra | >12.5 µg/mL
CCOC(=O)c1c(C)c(-c2ccc(Cl)cc2)n(CC(=O)NN=C2CCCCC2)c1C | inhibition | 6.25 µg/mL | resazurin | H37Rv (ATCC 27294) | 79%
O=C(NCc1ccc(N2CCN(Cc3ccccc3)CC2)cc1)c1ccc([N+](=O)[O-])o1 | MIC | - | - | H37Rv | 0.012 µg/mL
Nc1ccccc1Nc1c([N+](=O)[O-])cc(C(F)(F)F)cc1[N+](=O)[O-] | inhibition | 12.5 µg/mL | BACTEC | H37Rv | 95%
c1ccc(CO/N=C(\Cn2ccnc2)c2ccccc2)cc1 | MIC | - | - | CIP103471 | 1 µg/mL
O=C(Nc1nc(-c2c(F)cc(F)cc2F)cs1)c1ccc([N+](=O)[O-])o1 | inhibition | 10 µM | - | H37Ra | <0%
CC(C)(C)N1CCC1C(=O)NN | inhibition | 12.5 µg/mL | BACTEC | H37Rv | 2%
Fc1ccc(/C(Cn2ccnc2)=N/OCc2ccc(-c3ccccc3)cc2)cc1 | MIC | - | - | CIP103471 | 8 µg/mL
C[N+](C)(C)CC(=O)N/N=C1/c2ccccc2NC1[O-] | MIC | - | BACTEC | H37Rv | ≥12.5 µg/mL
O=C(Nc1nnc(-c2ccccc2Cl)o1)c1cccc(O)c1 | EC90 | - | agar | H37Rv | 0.86 µg/mL

The first 7 rows once more:

SMILES	measure	tested at	read by	strain or isolate	result
CCCCCCCCS(=O)(=O)CC(N)=O	MIC	-	-	OT2769	≤12.5 µg/mL
C(=C\c1ccccc1)/CO/N=C(\Cn1ccnc1)c1ccccc1	MIC	-	-	CIP103471	8 µg/mL
NNC(=O)c1ccncc1	MIC	-	-	ATCC 25177	0.22 µM
Cc1cc(C)c(-c2csc(NC(=O)c3ccc([N+](=O)[O-])o3)n2)c(C)c1	inhibition	10 µM	-	H37Ra	<0%
C=CCN1CSC(=S)N(CCc2ccc(Cl)c(Cl)c2)C1	MIC bound	-	BACTEC	H37Rv	>12.5 µg/mL
NC(=S)Nc1ccccc1	MIC	-	-	A67	1000 µM
OB1N=C(c2cnccn2)Nc2ccccc21	MIC	-	-	H37Rv	128 µg/mL